Read-outs that look alike come from different tables or passages of the source.
What was measured:
Experiment in all cases: cell-based or functional assay
[1] = target: human Nav1.7 voltage-gated sodium channel (human) (UniProt Q15858)
[2] = target: mouse Nav1.7 voltage-gated sodium channel (mouse) (UniProt Q62205)
[3] = target: rat Nav1.7 voltage-gated sodium channel (rat) (UniProt O08562)
[4] = target: human Nav1.7 voltage-gated sodium channel (human) (UniProt Q15858); remark: listed apart in the source
[5] = target: human Nav1.4 voltage-gated sodium channel (human) (UniProt P35499)
[6] = target: human Nav1.6 voltage-gated sodium channel (human) (UniProt Q9UQD0)
[7] = target: human voltage-gated sodium channel Nav1.7 (human) (UniProt Q15858)
[8] = target: human voltage-gated sodium channel Nav1.5 (human) (UniProt Q14524)
[9] = target: human voltage-gated sodium channel Nav1.3 (human) (UniProt Q9NY46)
[10] = target: human voltage-gated sodium channel Nav1.4 (human) (UniProt P35499)

Row | Substance | PX hNav1.7 Tonic IC50 [4] | PX hNav1.4 Tonic IC50 [5] | Nav1.4/Nav1.7 [5] | further results
1 | Trp-[Nle6]JzTx-V(1-29) (peptide; modification not given) | – | – | – | PX hNav1.7 Tonic IC50 [1]: 0.33 nM; PX mNav1.7 Tonic IC50 [2]: 1.34 nM; mNav1.7/hNav1.7 [2]: 4.07
2 | Pra-[Nle6;Glu28;Trp29]JzTx-V(1-29) (peptide; modification not given) | – | – | – | PX hNav1.7 Tonic IC50 [1]: 0.352 nM; PX mNav1.7 Tonic IC50 [2]: 3.11 nM; mNav1.7/hNav1.7 [2]: 8.82; PX rNav1.7 Tonic IC50 [3]: 0.097 nM; rNav1.7/hNav1.7 [3]: 0.27
3 | Sar-[Nle6]JzTx-V(1-29) (peptide; modification not given) | – | – | – | PX hNav1.7 Tonic IC50 [1]: 0.32 nM; PX mNav1.7 Tonic IC50 [2]: 3.45 nM; mNav1.7/hNav1.7 [2]: 10.8
4 | Atz(NPEG23)-[Nle6]JzTx-V(1-29) (peptide; modification not given) | 3.09 nM | – | – | PX hNav1.7 Tonic IC50 [1]: 3.09 nM; PX mNav1.7 Tonic IC50 [2]: 6.91 nM; mNav1.7/hNav1.7 [2]: 2.24
5 | Atz(NPEG10)-[Nle6; Glu28]JzTx-V(1-29) (peptide; modification not given) | 3.08 nM | 371 nM | – | –
6 | Pra-[Nle6; Glu28; Trp29]JzTx-V(1-29) (peptide; modification not given) | 0.782 nM | 36.7 nM | 47 | –
7 | CyA-[Nle6]JzTx-V(1-29) (peptide; modification not given) | – | – | – | PX hNav1.7 Tonic IC50 [1]: 0.31 nM; PX mNav1.7 Tonic IC50 [2]: 0.957 nM; mNav1.7/hNav1.7 [2]: 3.09
8 | Pra-[Nle6;Asp28]JzTx-V(1-29) (peptide; modification not given) | 5.98 nM | – | – | PX hNav1.6 Tonic IC50 [6]: 1620 nM
9 | Atz(NPEG9)-[Nle6]JzTx-V(1-29) (peptide; modification not given) | – | – | – | PX hNav1.7 Tonic IC50 [1]: 4.3 nM; PX mNav1.7 Tonic IC50 [2]: 7.11 nM; mNav1.7/hNav1.7 [2]: 1.65; PX rNav1.7 Tonic IC50 [3]: 0.961 nM; rNav1.7/hNav1.7 [3]: 0.22
10 | [Glu14]JzTx-V(1-29) (peptide; modification not given) | – | – | – | IC50 (IonWorks Quattro) [7]: 20 nM; IC50 (IonWorks Quattro) [8]: > 5000 nM; IC50 (IonWorks Quattro) [9]: 110 nM; IC50 (IonWorks Quattro) [10]: 230 nM; PX hNav1.6 Tonic IC50 [6]: 146 nM
11 | Pra-[Nle6; 5-BrW24]JzTx-V(1-29) (peptide; modification not given) | 1.66 nM | 11 nM | 7 | –
12 | Pra-[Nle6; Glu28; Phe29]JzTx-V(1-29) (peptide; modification not given) | 0.388 nM | 304 nM | 785 | –
13 | Pra-[Nle6;Glu8,28]JzTx-V(1-29) (peptide; modification not given) | 16.4 nM | – | – | PX hNav1.6 Tonic IC50 [6]: 6460 nM
14 | [Glu28]JzTx-V(1-29) (peptide; modification not given) | 0.568 nM | – | – | IC50 (IonWorks Quattro) [7]: 28 nM; IC50 (IonWorks Quattro) [8]: > 5000 nM; IC50 (IonWorks Quattro) [9]: 330 nM; IC50 (IonWorks Quattro) [10]: 830 nM; PX hNav1.6 Tonic IC50 [6]: 248 nM
15 | Homodimeric Conjugate No. 6 (peptide; modification not given) | 0.414 nM | – | – | –
16 | Homodimeric Peptide No. 6 (peptide; modification not given) | – | – | – | Nav1.7 PX IC50 [4]: 0.414 nM
17 | [Glu11]JzTx-V(1-29) (peptide; modification not given) | – | – | – | IC50 (IonWorks Quattro) [7]: 39 nM; IC50 (IonWorks Quattro) [8]: > 5000 nM; IC50 (IonWorks Quattro) [9]: 190 nM; IC50 (IonWorks Quattro) [10]: 380 nM; PX hNav1.6 Tonic IC50 [6]: 200 nM
18 | Pra-[Nle6; Glu8, 28]JzTx-V(1-29) (peptide; modification not given) | 16.4 nM | 1580 nM | 97 | –
19 | Pra-[hPhe5; Nle6; Glu28]JzTx-V(1-29) (peptide; modification not given) | 0.599 nM | 258 nM | 431 | –
20 | Homodimeric Conjugate No. 7 (peptide; modification not given) | 2.12 nM | 200 nM | – | –
21 | Pra-[4-BrhE5; Nle6; Glu28]JzTx-V(1-29) (peptide; modification not given) | 0.23 nM | 47.9 nM | 207 | –
22 | Pra-[Glu1, 11, 14, 28; Nle6]JzTx-V(1-29) (peptide) | 10.2 nM | 1920 nM | 189 | –
23 | D-Leu-[Nle6]JzTx-V(1-29) (peptide; modification not given) | – | – | – | PX hNav1.7 Tonic IC50 [1]: 0.15 nM; PX mNav1.7 Tonic IC50 [2]: 12.6 nM; mNav1.7/hNav1.7 [2]: 84
24 | Pra-[Nle6, 23; Glu28]JzTx-V(1-29) (peptide; modification not given) | 1.72 nM | 102 nM | 59 | –
25 | Pra-[Nle6; Glu28; Cha29]JzTx-V(1-29) (peptide; modification not given) | 0.593 nM | 36.6 nM | 62 | –
26 | Pra-[Nle6; 2-Nal7; Glu28]JzTx-V(1-29) (peptide; modification not given) | 470 nM | – | – | –
27 | Pra-[Nle6; Glu28]JzTx-V(1-29)-Gly-Free Acid (peptide; modification not given) | 8.34 nM | 1760 nM | 211 | –

Row | Substance | PX hNav1.7 Tonic IC50 [4] | PX hNav1.4 Tonic IC50 [5] | Nav1.4/Nav1.7 [5] | further results
28 | [Glu23]JzTx-V(1-29) (peptide; modification not given) | – | – | – | IC50 (IonWorks Quattro) [7]: 4000 nM; IC50 (IonWorks Quattro) [8]: > 5000 nM; IC50 (IonWorks Quattro) [9]: 2000 nM; IC50 (IonWorks Quattro) [10]: > 5000 nM; PX hNav1.6 Tonic IC50 [6]: 9550 nM
29 | Pra-[Nle6; Leu28]JzTx-V(1-29) (peptide; modification not given) | 2.91 nM | 25.9 nM | 9 | –
30 | Pra-[Nle6, 28]JzTx-V(1-29) (peptide; modification not given) | 0.339 nM | – | – | –
31 | Pra-[Nle6; Phe7; Glu28]JzTx-V(1-29) (peptide; modification not given) | 12.6 nM | 1010 nM | 80 | –
32 | [Glu29]JzTx-V(1-29) (peptide; modification not given) | 261 nM | – | – | IC50 (IonWorks Quattro) [7]: 280 nM; IC50 (IonWorks Quattro) [8]: > 5000 nM; IC50 (IonWorks Quattro) [9]: 5000 nM; IC50 (IonWorks Quattro) [10]: > 5000 nM; PX hNav1.6 Tonic IC50 [6]: > 10000 nM
33 | Pra-[hPhe5;Nle6;Glu28]JzTx-V(1-29) (peptide; modification not given) | 0.599 nM | – | – | PX hNav1.6 Tonic IC50 [6]: 998 nM
34 | Pra-[Nle6; Glu28]JzTx-V(1-29) (peptide; modification not given) | – | – | 253 | –
35 | Pra-[Nle6; Glu28]JzTx-V(1-29)-Glu (peptide; modification not given) | 32.4 nM | – | – | –
36 | Pra-[Nle6; 5-BrW24; Glu28]JzTx-V(1-29) (peptide; modification not given) | 0.039 nM | 40.4 nM | 1040 | –
37 | Pra-[Nle6; Glu12]JzTx-V(1-29) (peptide; modification not given) | 1.19 nM | 37.2 nM | 31 | –
38 | Pra-[Phe6; Glu28]JzTx-V(1-29) (peptide; modification not given) | 1.36 nM | 61.6 nM | 45 | –
39 | Pra-[Nle6; Asp28]JzTx-V(1-29) (peptide; modification not given) | 5.98 nM | 78.4 nM | 13 | –
40 | Glu-[Nle6;Glu28]JzTx-V(1-29) (peptide; modification not given) | 0.765 nM | – | – | PX hNav1.6 Tonic IC50 [6]: 522 nM
41 | [Glu4]JzTx-V(1-29) (peptide; modification not given) | 847 nM | – | – | PX hNav1.7 Tonic IC50 [7]: 847 nM; PX hNav1.6 Tonic IC50 [6]: > 10000 nM
42 | Pra-[1-Nal5; Nle6; Glu28]JzTx-V(1-29) (peptide; modification not given) | 70.9 nM | – | – | –
43 | Glu-Pra-[Nle6;Glu28]JzTx-V(1-29) (peptide; modification not given) | 0.738 nM | – | – | PX hNav1.6 Tonic IC50 [6]: 174 nM
44 | Pra-[Nle6; Phe24; Glu28]JzTx-V(1-29) (peptide; modification not given) | 15.3 nM | – | – | –
45 | Pra-[Nle6; 1-Nal24; Glu28]JzTx-V(1-29) (peptide; modification not given) | 32 nM | – | – | –
46 | Pra-[SeC2, 16; Nle6; Glu28]JzTx-V(1-29) (peptide; modification not given) | 0.949 nM | 58.1 nM | 61 | –
47 | [Glu7]JzTx-V(1-29) (peptide; modification not given) | – | – | – | IC50 (IonWorks Quattro) [7]: 560 nM; IC50 (IonWorks Quattro) [8]: > 5000 nM; IC50 (IonWorks Quattro) [9]: 2800 nM; IC50 (IonWorks Quattro) [10]: 2600 nM; PX hNav1.6 Tonic IC50 [6]: > 10000 nM
48 | Pra-[Nle6; Pro28]JzTx-V(1-29) (peptide; modification not given) | 1.97 nM | 206 nM | 105 | –
49 | Pra-[Nle6; hPhe24; Glu28]JzTx-V(1-29) (peptide; modification not given) | > 1000 nM | – | – | –
50 | Glu-Pra-[Nle6; Glu28]JzTx-V(1-29) (peptide; modification not given) | 0.738 nM | 112 nM | 152 | –
51 | Pra-[2-Nal5; Nle6; Glu28]JzTx-V(1-29) (peptide; modification not given) | 21.6 nM | – | – | –
52 | Pra-[5-BrW5; Nle6; Glu28]JzTx-V(1-29) (peptide; modification not given) | 53.5 nM | – | – | –
53 | Pra-[Nle6; hPhe7; Glu28]JzTx-V(1-29) (peptide; modification not given) | > 1000 nM | – | – | –

Source: patent US20160024159A1, “Potent and selective inhibitors of Nav1.7” (published 2016)
